Reference: patent US20050239704
Construct, isoform or probe ends are uncertain for at least one entry.

Key:
[1] = target: SarR (Staphylococcus aureus) (UniProt Q2FEJ8); assay: footprint; conditions: purified recombinant protein
[2] = target: SarR (partially purified native, ~12 kDa) (Staphylococcus aureus) (UniProt Q2FEJ8); assay: pull-down; conditions: DNA-Sepharose affinity column from S. aureus lysate; purified native protein

| Sequence | binding result ([1]; 30-100 ng SarR, 5 mM MgCl2, 1 mM CaCl2, 100 mM NaCl, pH 8.0, RT) | binding result [2] | binding result ([1]; protected region within P3 fragment nt 364-525, variant of sarA P3 promoter fragment (nt 364-525)) |
| --- | --- | --- | --- |
| TCTTAAGACCTAAATTAATGTTATTTTTTAATAATTTACACCAAATTAA (double strand) [49-bp sarA P2 upstream fragment (nt 71-119)] | binds | binds |  |
| TTACTAAATTAAAAAAATTA (double strand) [sarA P3 protected region] |  |  | binds |
